A mixed list of measured activities; the numbers were collected in NIAID ChemDB.

All rows: toxicity to cultured cells; cells: MT-4; read-out: CC50

Neighbouring rows are from separate reports.

smiles | method | value
CC(C)Nc1cccnc1N1CCN(C(=O)c2cc3cc(NS(C)(=O)=O)ccc3[nH]2)CC1 | MTT | >36 µM
O=C(O)c1cc(CN2CCCNCCNCCCNCC2)ccc1CN1CCCNCCNCCCNCC1 | - | >250 µg/mL
Cc1cc(S(N)(=O)=O)ccc1NC(=O)CN1CCC(Nc2nccc(Oc3c(C)cc(C#N)cc3C)n2)CC1 | MTT | 1.637 µM
C/C=C(\C)C(=O)O[C@@]12[C@H](O)[C@@H](C)[C@@]3(O)[C@@H](C=C(COC(=O)CCCCCCC/C=C\C/C=C\CCCCC)C[C@]4(O)C(=O)C(C)=C[C@@H]34)[C@@H]1C2(C)C | - | >62.5 µg/mL
O=C(CSc1nncnc1-c1ccccc1Cl)Nc1cccnc1Cl | MTT | 167 µM
CCCCCCCCCC(=O)O[C@@H]1[C@@H](C)[C@@]2(O)C(C=C(CO)C[C@]3(O)C(=O)C(C)=CC23)C2C(C)(C)[C@@]21OC(=O)C(C)CC | - | >31.3 µg/mL
Cc1cn([C@H]2C[C@H](N=[N+]=[N-])[C@@H](CO)O2)c(=O)[nH]c1=O | - | 1.1 µg/mL
CC1=CC2c3c(O)cc(-c4cc5ccc(O)cc5o4)cc3OC3(c4ccc(O)cc4O)Oc4cc(O)ccc4C(C1)C23 | - | 2 µg/mL
C(CC1CNCCNCCNCCNCCNC1)CC1CNCCNCCNCCNCCNC1 | - | 4.5 µM
C1CNCCNCCCN2CCCNCCNCCCN(C1)CC2 | - | >250 µg/mL
C[C@@H]1[C@H](O)[C@@H](CO)O[C@H]1n1cnc2c(=O)[nH]c(N)nc21 | - | >100 µM
CCCCC/C=C\C/C=C\CCCCCCCC(=O)OCC1=C[C@H]2[C@@H]3C(C)(C)[C@]3(OC(C)=O)[C@H](O)[C@@H](C)[C@]2(O)[C@@H]2C=C(C)C(=O)[C@@]2(O)C1 | - | >62.5 µg/mL
Cc1cc(C#N)cc(C)c1Oc1ccnc(NC2CCN(CC(=O)Nc3ccccc3F)CC2)n1 | MTT | 119 µM
Cc1ccc(CNC(=O)C2C(=O)N(O)C(=O)c3ccccc32)cc1 | MTT | 127 µM
O=C1Nc2ccccc2Sn2cccc21 | - | >300 µM
Cc1cn([C@H]2C[C@H](N=[N+]=[N-])[C@@H](CO)O2)c(=O)[nH]c1=O | trypan blue / absorbance | 80 µM
C=CCNC(=O)C1C(=O)N(O)C(=O)c2ccccc21 | MTT | 129 µM
CN1C(=S)c2cn(C)cc2S(=O)(=O)c2cc(Cl)ccc21 | MTT | >200 µM
CCOC(=O)c1ccc(NC(=O)CSc2nncnc2-c2cccc3ccccc23)c(Br)c1 | MTT | 105 µM
CC(C)=CCc1c(O)cc2occ(-c3ccc4c(c3O)C=CC(C)(C)O4)c(=O)c2c1O | - | 6 µg/mL
CCC(CC1CCOCC1)c1cc(O)c(C(c2cccc(NS(=O)(=O)c3cn(C)cn3)c2)C2CC2)c(=O)o1 | - | >30 µM
O=C1c2cccn2S(=O)(=O)c2ccccc2N1Cc1ccccc1 | - | >300 µM
Cc1nc2ccccc2c(-c2ccc3c4c(ccnc24)[C@H]2C[C@@H]32)c1[C@H](OC(C)(C)C)C(=O)O | ATP | >53.2 µM
O=C(NCCCCl)C1C(=O)N(O)C(=O)c2ccccc21 | MTT | 51 µM
Cc1cc(C#N)cc(C)c1Oc1ccnc(NC2CCN(CC(=O)Nc3ccccc3Cl)CC2)n1 | MTT | 1.507 µM
C1CNCCNCCCN(CCCN2CCCNCCNCCCNCC2)CCNC1 | - | >250 µg/mL
Cc1cc(C#N)cc(C)c1Oc1ccnc(NC2CCN(CC(=O)Nc3cc(Cl)cc(Cl)c3)CC2)n1 | MTT | 3.521 µM
Cn1cnc(S(=O)(=O)Nc2cccc(C(c3c(O)cc(CCc4ccccc4)oc3=O)C3CC3)c2)c1 | - | >30 µM
Cc1cn([C@H]2C[C@H](N=[N+]=[N-])[C@@H](COP(=O)(OCCS[C@@H]3O[C@H](CO)[C@@H](O)[C@H](O)[C@H]3O)OCCS[C@@H]3O[C@H](CO)[C@@H](O)[C@H](O)[C@H]3O)O2)c(=O)[nH]c1=O | - | >10 µM
CCCCCCCCCCCCCC(=O)O[C@@H]1[C@@H](C)[C@@]2(O)[C@@H](C=C(CO)C[C@]3(O)C(=O)C(C)=C[C@@H]23)[C@@H]2C(C)(C)[C@]12OC(C)=O | - | >31.3 µg/mL
CCC(=O)Oc1ccc2c(C)cc(=O)oc2c1Cc1c(-c2ccccc2)[nH]c2ccccc12 | - | 38 µM
CC(=O)OC[C@H]1O[C@@H](SCCOP(=O)(OCS[C@@H]2O[C@H](COC(C)=O)[C@@H](OC(C)=O)[C@H](OC(C)=O)[C@H]2OC(C)=O)OC[C@H]2O[C@@H](n3cc(C)c(=O)[nH]c3=O)C[C@@H]2N=[N+]=[N-])[C@H](OC(C)=O)[C@@H](OC(C)=O)[C@@H]1OC(C)=O | - | >10 µM
C(CCC1CNCCNCCCNCCNC1)CCC1CNCCNCCCNCCNC1 | - | 70 µM
CCC(CC)c1cc(O)c(C(c2cccc(NS(=O)(=O)c3cn(C)cn3)c2)C2CC2)c(=O)o1 | - | >30 µM
CCN1C(=O)c2cccn2S(=O)(=O)c2ccccc21 | - | 168 µM
C1CNCCNCC(CCCC2CNCCNCCCNCCNC2)CNCCNC1 | - | 400 µM
CCc1c(Sc2ccccc2)n(COCCO)c(=O)[nH]c1=O | - | 400 µM
CC(=O)OC[C@H]1O[C@@H](SCCOP(=O)(OCCS[C@@H]2O[C@H](CO)[C@@H](O)[C@H](O)[C@H]2O)OC[C@H]2O[C@@H](n3cc(C)c(=O)[nH]c3=O)C[C@@H]2N=[N+]=[N-])[C@H](OC(C)=O)[C@@H](OC(C)=O)[C@@H]1OC(C)=O | - | >10 µM
Cc1c(Sc2ccccc2)n(COCCO)c(=O)[nH]c1=O | - | >500 µM
COc1ccc2c(O)c(C(c3cccc(NS(=O)(=O)c4ccc(C#N)cc4)c3)C3CC3)c(=O)oc2c1 | - | >30 µM
O=C(CSc1nncnc1-c1ccccc1Cl)Nc1ccccc1Br | MTT | 73 µM
Cc1cc(C#N)cc(C)c1Oc1ccnc(NC2CCN(CC(=O)Nc3ccc(O)cc3)CC2)n1 | MTT | 2.18 µM
O=C1Nc2ccc(Cl)cc2S(=O)(=O)c2cn(Cc3ccc(-c4ccccc4)cc3)cc21 | MTT | 4.6 µM
COCOc1cc(OCC=C(C)C)c2c(=O)c(OCOC)c(-c3ccc(OCOC)c(OCOC)c3)oc2c1 | - | >100 µg/mL
c1ncc(CN2CCCNCCNCCCNCC2)cc1CN1CCCNCCNCCCNCC1 | - | >250 µg/mL
Oc1ccc2cc(Br)ccc2c1CN1CCN(Cc2c(O)ccc3cc(Br)ccc23)CC1 | - | >100 µM
Cn1cc2c(c1)S(=O)(=O)c1cc(Cl)ccc1NC2=S | MTT | >200 µM
O=c1[nH]c(=O)n([C@H]2C[C@H](F)[C@@H](CO)O2)cc1Cl | - | 490 µM
COc1ccc2ccc(O)c(CN3CCN(Cc4c(O)ccc5ccc(OC)cc45)CC3)c2c1 | - | >100 µM
CC(C)(C)NC(=O)[C@@H]1C[C@@H]2CCCC[C@@H]2CN1C[C@@H](O)[C@H](Cc1ccccc1)NC(=O)[C@H](CC(N)=O)NC(=O)c1ccc2ccccc2n1 | MTT | >0.3 µg/mL
CC(C)=CCc1cc([C@H]2Oc3c(ccc(O)c3CC=C(C)C)C(=O)[C@@H]2O)ccc1O | - | 12 µg/mL
Cc1cccc(NC(=O)CN2CCC(Nc3nccc(Oc4c(C)cc(C#N)cc4C)n3)CC2)c1 | MTT | 1.679 µM
CCc1c(Sc2ccccc2)n(COCc2ccccc2)c(=O)[nH]c1=O | - | 30 µM
Cc1cn([C@H]2C[C@H](N=[N+]=[N-])[C@@H](CO)O2)c(=O)[nH]c1=O | - | 6.8 µM
CCC(Cc1ccccc1)c1cc(O)c(C(c2cccc(NS(=O)(=O)c3cn(C)cn3)c2)C2CC2)c(=O)o1 | - | >30 µM
COCOc1cc(O)c(C(=O)/C=C/c2ccc(OCOC)c(OCOC)c2)c(OCOC)c1 | - | 14 µg/mL
CC(C)=CCN1C(=O)c2cccn2S(=O)(=O)c2cc(Cl)ccc21 | - | >300 µM
O=C1CCNCCNCCCNCCN1 | - | 280 µM
O=C(NCc1ccc(F)cc1)C1C(=O)N(O)C(=O)c2ccccc21 | MTT | >125 µM
COc1ccc2[nH]cc(Cc3c(OC(C)=O)ccc4ccccc34)c2c1 | - | 19 µM
O=C1Nc2ccc(Cl)cc2S(=O)(=O)c2cn(Cc3c(F)cccc3F)cc21 | MTT | >200 µM

For reference, 5 entries again:

smiles | method | value
O=C(NCc1ccc(F)cc1)C1C(=O)N(O)C(=O)c2ccccc21 | MTT | >125 µM
CCC(CC1CCOCC1)c1cc(O)c(C(c2cccc(NS(=O)(=O)c3cn(C)cn3)c2)C2CC2)c(=O)o1 | - | >30 µM
CN1C(=S)c2cn(C)cc2S(=O)(=O)c2cc(Cl)ccc21 | MTT | >200 µM
Cc1cc(C#N)cc(C)c1Oc1ccnc(NC2CCN(CC(=O)Nc3ccc(O)cc3)CC2)n1 | MTT | 2.18 µM
CCCCC/C=C\C/C=C\CCCCCCCC(=O)OCC1=C[C@H]2[C@@H]3C(C)(C)[C@]3(OC(C)=O)[C@H](O)[C@@H](C)[C@]2(O)[C@@H]2C=C(C)C(=O)[C@@]2(O)C1 | - | >62.5 µg/mL

An empty or dashed field is not shown. CCn is the concentration with n% toxicity to the cells.